Pooled drug test results. Numbers come from NIAID ChemDB, via PubChem.

Common to all: tests in culture; organism: HIV-1; endpoint: EC90

Two numbers with a dash give a range or band. Lines come from different laboratories, so protocols vary. Blank or dashed fields: not listed here. ECn is the concentration giving n% inhibition of infection, replication or growth.

structure,strain or isolate,mutations,cells,read by,value
CO[C@H]1/C=C/O[C@@]2(C)Oc3c(C)c(O)c4c(c3C2=O)C(=O)C(SCCOC(=O)CCC(=O)OC[C@H]2O[C@@H](n3cc(C)c(=O)[nH]c3=O)C[C@@H]2N=[N+]=[N-])=C(NC(=O)/C(C)=C\C=C\[C@H](C)[C@@H]2OC(C)(C)O[C@@H]([C@@H](C)[C@H](OC(C)=O)[C@@H]1C)[C@@H]2C)C4=O,IIIB,-,C8166,p24,13 µM
CC(C)(C)NC(=O)[C@@H]1C[C@@H]2CCCC[C@@H]2CN1C[C@@H](O)[C@H](Cc1ccccc1)NC(=O)[C@H](CC(N)=O)NC(=O)c1ccc2ccccc2n1,LAI,-,PBL,RT activity,0.024 µM
CC(C)c1c(CO)cn(Cc2ccncc2)c1Sc1ccccc1,-,RT-Y181C,C8166,p24,>100 µM
CN=C1CN=C(c2ccc[nH]2)c2cc(Cl)ccc2N1,LAV-1,-,HT4 + HT4-6C,plaque count,2–3 µM
C1CNCCNCCCN[C@H]([C@@H]2CNCCCNCCNCCCN2)CNC1,HE,-,MT-4,cytopathic effect / MTT,0.87 µM
CC(C)[C@H](NC(=O)N(C)Cc1ccccn1)C(=O)N[C@@H](Cc1ccccc1)[C@@H](O)[C@H](O)[C@H](Cc1ccccc1)NC(=O)[C@@H](NC(=O)N(C)Cc1ccccn1)C(C)C,IIIB,-,ATH8,cytopathic effect / trypan blue,8.5 µM
CCc1cc(NCc2nc3c(Cl)ccc(Cl)c3o2)c(=O)[nH]c1C,R88703-resistant IIIB (RT Y181C),RT-Y181C,MT-4,p24,7.7 µM
COc1oc([C@H]2C/C(=C/C(C)=C/c3ccc(-c4ccccc4)cc3)CO2)c(C)c(=O)c1C,LAI,-,PBMC + LC5-RIC,fluorescence,0.4635 µM
Nc1nc(N)c2ncn([C@H]3CC[C@@H](CO)O3)c2n1,-,-,-,-,29 µM
CC(C)c1nc(CN(C)C(=O)N[C@H](C(=O)N[C@@H](Cc2ccccc2)C[C@H](O)[C@H](Cc2ccccc2)NC(=O)OCc2cncs2)C(C)C)cs1,NL4-3-P22 (PR D30N A71V),PR-D30N A71V,MT-4,p24,0.09 µM
COC(=O)[C@H](C)NP(=O)(OC[C@@H]1C=C[C@H](n2cc(C)c(=O)[nH]c2=O)O1)Oc1ccccc1,BaL,-,MM + M/M,antigen,0.03 µM
COCCNC(=O)[C@@H](NC(=O)[C@H](Cc1ccc(OC)c(OC)c1OC)C[C@H](O)[C@H](Cc1ccccc1)NC(=O)OC(C)(C)C)C(C)C,LAI,-,PBL,RT activity,0.0381 µM
CC(C)c1c(COC(N)=O)cn(Cc2ccncc2)c1Sc1ccccc1,-,RT-K103N,-,cytopathic effect / MTT,>100 µM
Cc1c(O)cccc1C(=O)N[C@@H](Cc1ccccc1)[C@H](O)C(=O)N1C[C@@H](Cl)C[C@H]1C(=O)NC(C)(C)C,IIIB,-,CEM,-,0.11 µM
CC(C)(C)NC(=O)[C@@H]1C[C@H](F)CN1C(=O)[C@@H](O)[C@H](Cc1ccccc1)NC(=O)[C@H](CC(N)=O)NC(=O)OCc1ccccc1,IIIB,-,CEM,p24,5 µM
COc1oc([C@H]2C/C(=C/C(C)=C/c3ccc(F)cc3F)CO2)c(C)c(=O)c1C,LAI,-,PBMC + LC5-RIC,fluorescence,0.086 µM
CO[C@H]1/C=C/O[C@@]2(C)Oc3c(C)c(O)c4c(c3C2=O)C(=O)C(SCCOC(=O)CCCC(=O)OC[C@@H]2O[C@H](n3cc(C)c(=O)[nH]c3=O)C[C@H]2N=[N+]=[N-])=C(NC(=O)/C(C)=C\C=C\[C@H](C)[C@@H]2OC(C)(C)O[C@@H]([C@@H](C)[C@H](OC(C)=O)[C@@H]1C)[C@@H]2C)C4=O,IIIB,-,C8166,p24,14 µM
CCc1c(O)cccc1C(=O)N[C@@H](Cc1ccccc1)[C@H](O)C(=O)N1C[C@@H](Cl)C[C@H]1C(=O)NC(C)(C)C,IIIB,-,CEM,-,0.12 µM
CC(C)(C)NC(=O)[C@@H]1CC(=O)CN1C(=O)[C@@H](O)[C@H](Cc1ccccc1)NC(=O)[C@H](CC(N)=O)NC(=O)OCc1ccccc1,IIIB,-,CEM,p24,1.5 µM
CC(C)c1c(CO)cn(Cc2ccncc2)c1Sc1cc(Cl)cc(Cl)c1,-,RT-Y181C,C8166,p24,1.7 µM
Cc1ccnc2c1NC(=O)c1cccnc1N2C1CC1,SF162,-,ACH2 + TZM-bl,luciferase,0.157 µM
CC(C)CN(C[C@@H](O)[C@H](Cc1ccccc1)NC(=O)O[C@H]1CCOC1)S(=O)(=O)c1ccc(N)cc1,IIIB,-,CEM + CEM-SS,p24,0.026 µM
CC(C)(C)NC(=O)[C@@H]1CCCN1C(=O)[C@@H](O)[C@H](Cc1ccccc1)NC(=O)[C@H](CC(N)=O)NC(=O)c1cnc2ccccc2n1,IIIB,-,MOLT-4/HIV-1(IIIB) + MOLT-4,p24,1 µM
Cc1cn([C@H]2C[C@H](N=[N+]=[N-])[C@@H](CO)O2)c(=O)[nH]c1=O,BaL,-,MM + M/M,antigen,0.02 µM
CC(C)(C)NC(=O)[C@@H]1C[C@H](Cl)CN1C(=O)[C@@H](O)[C@H](Cc1ccccc1)NC(=O)OC1CCOC1,IIIB,-,CEM,-,4.8 µM
O=C(Nc1cc(S(=O)(=O)O)cc2cc(S(=O)(=O)O)c(N=Nc3ccc(N=Nc4c(S(=O)(=O)O)cc5cc(S(=O)(=O)O)cc(NC(=O)c6cccc(Cl)c6Cl)c5c4O)cc3)c(O)c12)c1ccc(Cl)cc1Cl,IIIB,-,H9,-,1–3.8 µg/mL
Nc1nc(N)c2ncn(CCOCP(=O)(O)O)c2n1,LAV,-,H9,RT activity,0.1 µM
Nc1nc(=O)n([C@@H]2CS[C@H](CO)O2)cc1F,LAI,-,Primary T lymphocytes,p24 / ELISA,0.8 µM
CO[C@H]1/C=C/O[C@@]2(C)Oc3c(C)c(O)c4c(c3C2=O)C(=O)C(SCCOC(=O)CCC(=O)OC[C@H]2O[C@@H](n3cc(C)c(=O)[nH]c3=O)CC2O)=C(NC(=O)/C(C)=C\C=C\[C@H](C)[C@H](O)[C@@H](C)[C@@H](O)[C@@H](C)[C@H](OC(C)=O)[C@@H]1C)C4=O,IIIB,-,C8166,p24,29 µM
C1CNCCNCCCN(CCCN2CCCNCCNCCCNCC2)CCNC1,IIIB,-,CEM,antigen,5.1 µM
Nc1ccn([C@@H]2CS[C@H](CO)O2)c(=O)n1,-,M184V,Primary T lymphocytes,p24 / ELISA,>10 µM
Cc1cn([C@H]2C[C@H](N=[N+]=[N-])[C@@H](CO)O2)c(=O)[nH]c1=O,NL4-3,-,ACH2 + TZM-bl,luciferase,0.0148 µM
Nc1ccn([C@H]2CC[C@@H](CO)O2)c(=O)n1,BaL,-,MM + M/M,antigen,0.01 µM
Cc1cn([C@H]2C=C[C@@H](CO)O2)c(=O)[nH]c1=O,RF,-,C8166,cytopathic effect,1 µg/mL
COc1oc([C@H]2C/C(=C/C(C)=C/c3ccc(OC(C)=O)cc3)CO2)c(C)c(=O)c1C,LAI,-,PBMC + LC5-RIC,fluorescence,0.2698 µM
Nc1ncnc2c1ncn2CCOCP(=O)(O)O,LAV,-,H9,RT activity,8 µM
CC(C)(C)NC(=O)[C@@H]1C[C@H](Cl)CN1C(=O)[C@@H](O)[C@H](Cc1ccccc1)NC(=O)[C@H](CC(N)=O)NC(=O)c1noc2ccccc12,IIIB,-,CEM,p24,0.16 µM
Cc1cn([C@H]2C[C@H](N=[N+]=[N-])[C@@H](CO)O2)c(=O)[nH]c1=O,-,A62V V75I F77L F116Y Q151M,Primary T lymphocytes,p24 / ELISA,41.2 µM
CC(C)c1c(COC(N)=O)cn(Cc2ccncc2)c1Sc1cc(Cl)cc(Cl)c1,-,RT-K103N,-,cytopathic effect / MTT,30 µM

A second listing of 6 rows from above:

structure | strain or isolate | mutations | cells | read by | value
CC(C)c1c(COC(N)=O)cn(Cc2ccncc2)c1Sc1ccccc1 | - | RT-K103N | - | cytopathic effect / MTT | >100 µM
CC(C)c1c(CO)cn(Cc2ccncc2)c1Sc1cc(Cl)cc(Cl)c1 | - | RT-Y181C | C8166 | p24 | 1.7 µM
CO[C@H]1/C=C/O[C@@]2(C)Oc3c(C)c(O)c4c(c3C2=O)C(=O)C(SCCOC(=O)CCCC(=O)OC[C@@H]2O[C@H](n3cc(C)c(=O)[nH]c3=O)C[C@H]2N=[N+]=[N-])=C(NC(=O)/C(C)=C\C=C\[C@H](C)[C@@H]2OC(C)(C)O[C@@H]([C@@H](C)[C@H](OC(C)=O)[C@@H]1C)[C@@H]2C)C4=O | IIIB | - | C8166 | p24 | 14 µM
Nc1nc(=O)n([C@@H]2CS[C@H](CO)O2)cc1F | LAI | - | Primary T lymphocytes | p24 / ELISA | 0.8 µM
Cc1c(O)cccc1C(=O)N[C@@H](Cc1ccccc1)[C@H](O)C(=O)N1C[C@@H](Cl)C[C@H]1C(=O)NC(C)(C)C | IIIB | - | CEM | - | 0.11 µM
CC(C)c1c(CO)cn(Cc2ccncc2)c1Sc1ccccc1 | - | RT-Y181C | C8166 | p24 | >100 µM